# Source: article PMC5864910, “Mutacin 1140 Lantibiotic Variants Are Efficacious Against Clostridium difficile Infection” (Frontiers in Microbiology, 2018)
Structure (SMILES),Minimum Inhibitory Concentration C. difficile ATCC 9689 (Clostridium difficile),Minimum Inhibitory Concentration C. difficile BAA-1805 (Clostridium difficile),Minimum Inhibitory Concentration C. difficile BAA-1875 (Clostridium difficile),Minimum Inhibitory Concentration VRE ATCC 51575 (E. faecalis),Minimum Inhibitory Concentration VRE ATCC 700221 (E. faecium),Minimum Inhibitory Concentration S. aureus ATCC 19636 (Staphylococcus aureus),Minimum Inhibitory Concentration S. aureus ATCC 29213 (Staphylococcus aureus),Minimum Inhibitory Concentration S. aureus ATCC 33591 (Staphylococcus aureus),Minimum Inhibitory Concentration S. aureus ATCC 700699 (Staphylococcus aureus),Minimum Inhibitory Concentration S. aureus BAA-1717 (Staphylococcus aureus),Minimum Inhibitory Concentration S. aureus Max (Staphylococcus aureus),Minimum Inhibitory Concentration S. aureus Min (Staphylococcus aureus),Minimum Inhibitory Concentration S. aureus Mode (Staphylococcus aureus),Minimum Inhibitory Concentration S. aureus Range (Staphylococcus aureus)
C=C1NC(=O)[C@H](C(C)C)NC(=O)[C@H](NC(=O)[C@H](CCCCN)NC(=O)[C@@H](N)Cc2ccccc2)CSC[C@@H](C(=O)N[C@H]2C(=O)N3CCC[C@H]3C(=O)NCC(=O)N[C@H](C(=O)N[C@@H](C)C(=O)N[C@@H](CCCNC(=N)N)C(=O)N/C(=C\C)C(=O)NCC(=O)N[C@@H]3CSC[C@@H]4NC(=O)[C@H](Cc5ccc(O)cc5)NC(=O)[C@@H](CS/C=C\NC4=O)NC(=O)[C@H](CC(N)=O)NC(=O)[C@H](Cc4ccccc4)NC3=O)CS[C@H]2C)NC(=O)[C@H](CC(C)C)NC1=O [W4V],16 mg/mL,0.06299 mg/mL,0.125 mg/mL,32 mg/mL,8 mg/mL,8 mg/mL,16 mg/mL,2 mg/mL,16 mg/mL,8 mg/mL,–,–,–,–
C=C1NC(=O)[C@H](Cc2c[nH]c3ccccc23)NC(=O)[C@H](NC(=O)[C@H](CCCCN)NC(=O)[C@@H](N)Cc2ccccc2)CSC[C@@H](C(=O)N[C@H]2C(=O)N3CCC[C@H]3C(=O)NCC(=O)N[C@H](C(=O)N[C@@H](C)C(=O)N[C@@H](CC(C)C)C(=O)N/C(=C\C)C(=O)NCC(=O)N[C@@H]3CSC[C@@H]4NC(=O)[C@H](Cc5ccc(O)cc5)NC(=O)[C@@H](CS/C=C\NC4=O)NC(=O)[C@H](CC(N)=O)NC(=O)[C@H](Cc4ccccc4)NC3=O)CS[C@H]2C)NC(=O)[C@H](CC(C)C)NC1=O [R13L],4 mg/mL,–,0.125 mg/mL,16 mg/mL,8 mg/mL,2 mg/mL,4 mg/mL,2 mg/mL,8 mg/mL,4 mg/mL,–,–,–,–
C=C1NC(=O)[C@H](Cc2c[nH]c3ccccc23)NC(=O)[C@H](NC(=O)[C@H](CCCCN)NC(=O)[C@@H](N)Cc2ccccc2)CSC[C@@H](C(=O)N[C@H]2C(=O)N3CCC[C@H]3C(=O)NCC(=O)N[C@H](C(=O)N[C@@H](C)C(=O)N[C@@H](CCCNC(=N)N)C(=O)N/C(=C\C)C(=O)NCC(=O)N[C@@H]3CSC[C@@H]4NC(=O)[C@H](Cc5ccc(O)cc5)NC(=O)[C@@H](CS/C=C\NC4=O)NC(=O)[C@H](CC(N)=O)NC(=O)[C@H](Cc4ccc(O)cc4)NC3=O)CS[C@H]2C)NC(=O)[C@H](CC(C)C)NC1=O [F17Y],2 mg/mL,–,0.125 mg/mL,8 mg/mL,4 mg/mL,1 mg/mL,2 mg/mL,1 mg/mL,2 mg/mL,2 mg/mL,2 mg/mL,1 mg/mL,2 mg/mL,1 to 2 mg/mL
C=C1NC(=O)[C@H](C)NC(=O)[C@H](NC(=O)[C@H](CCCCN)NC(=O)[C@@H](N)Cc2ccccc2)CSC[C@@H](C(=O)N[C@H]2C(=O)N3CCC[C@H]3C(=O)NCC(=O)N[C@H](C(=O)N[C@@H](C)C(=O)N[C@@H](CCCNC(=N)N)C(=O)N/C(=C\C)C(=O)NCC(=O)N[C@@H]3CSC[C@@H]4NC(=O)[C@H](Cc5ccc(O)cc5)NC(=O)[C@@H](CS/C=C\NC4=O)NC(=O)[C@H](CC(N)=O)NC(=O)[C@H](Cc4ccccc4)NC3=O)CS[C@H]2C)NC(=O)[C@H](CC(C)C)NC1=O [W4A],32 mg/mL,0.06299 mg/mL,0.25 mg/mL,64 mg/mL,16 mg/mL,16 mg/mL,32 mg/mL,1 mg/mL,16 mg/mL,8 mg/mL,–,–,–,–
C=C1NC(=O)[C@H](Cc2c[nH]c3ccccc23)NC(=O)[C@H](NC(=O)[C@H](CCCCN)NC(=O)[C@@H](N)Cc2ccccc2)CSC[C@@H](C(=O)N[C@H]2C(=O)N[C@@H](Cc3c[nH]cn3)C(=O)NCC(=O)N[C@H](C(=O)N[C@@H](C)C(=O)N[C@@H](CCCNC(=N)N)C(=O)N/C(=C\C)C(=O)NCC(=O)N[C@@H]3CSC[C@@H]4NC(=O)[C@H](Cc5ccc(O)cc5)NC(=O)[C@@H](CS/C=C\NC4=O)NC(=O)[C@H](CC(N)=O)NC(=O)[C@H](Cc4ccccc4)NC3=O)CS[C@H]2C)NC(=O)[C@H](CC(C)C)NC1=O [P9H],32 mg/mL,0.25 mg/mL,1 mg/mL,32 mg/mL,4 mg/mL,4 mg/mL,8 mg/mL,4 mg/mL,8 mg/mL,8 mg/mL,–,–,–,–
C=C1NC(=O)[C@H](Cc2c[nH]c3ccccc23)NC(=O)[C@H](NC(=O)[C@H](CCCCN)NC(=O)[C@@H](N)Cc2ccccc2)CSC[C@@H](C(=O)N[C@H]2C(=O)N3CCC[C@H]3C(=O)NCC(=O)N[C@H](C(=O)N[C@@H](C)C(=O)N[C@@H](C)C(=O)N/C(=C\C)C(=O)NCC(=O)N[C@@H]3CSC[C@@H]4NC(=O)[C@H](Cc5ccc(O)cc5)NC(=O)[C@@H](CS/C=C\NC4=O)NC(=O)[C@H](CC(N)=O)NC(=O)[C@H](Cc4ccccc4)NC3=O)CS[C@H]2C)NC(=O)[C@H](CC(C)C)NC1=O [R13A],4 mg/mL,–,0.125 mg/mL,16 mg/mL,4 mg/mL,1 mg/mL,8 mg/mL,1 mg/mL,4 mg/mL,2 mg/mL,8 mg/mL,1 mg/mL,1 mg/mL,1 to 8 mg/mL
C=C1NC(=O)[C@H](Cc2c[nH]c3ccccc23)NC(=O)[C@H](NC(=O)[C@H](CCCCN)NC(=O)[C@@H](N)Cc2ccccc2)CSC[C@@H](C(=O)N[C@H]2C(=O)N3CCC[C@H]3C(=O)NCC(=O)N[C@H](C(=O)N[C@@H](C)C(=O)N[C@@H](CCCNC(=N)N)C(=O)N/C(=C\C)C(=O)NCC(=O)N[C@@H]3CSC[C@@H]4NC(=O)[C@H](Cc5ccc(O)cc5)NC(=O)[C@@H](CS/C=C\NC4=O)NC(=O)[C@H](CC(N)=O)NC(=O)[C@H](Cc4ccccc4)NC3=O)CS[C@H]2C)NC(=O)[C@H]([C@@H](C)O)NC1=O [L6T],16 mg/mL,0.125 mg/mL,0.125 mg/mL,32 mg/mL,8 mg/mL,8 mg/mL,32 mg/mL,2 mg/mL,16 mg/mL,8 mg/mL,–,–,–,–
C=C1NC(=O)[C@H](Cc2c[nH]c3ccccc23)NC(=O)[C@H](NC(=O)[C@H](CCSC)NC(=O)[C@@H](N)Cc2ccccc2)CSC[C@@H](C(=O)N[C@H]2C(=O)N3CCC[C@H]3C(=O)NCC(=O)N[C@H](C(=O)N[C@@H](C)C(=O)N[C@@H](CCCNC(=N)N)C(=O)N/C(=C\C)C(=O)NCC(=O)N[C@@H]3CSC[C@@H]4NC(=O)[C@H](Cc5ccc(O)cc5)NC(=O)[C@@H](CS/C=C\NC4=O)NC(=O)[C@H](CC(N)=O)NC(=O)[C@H](Cc4ccccc4)NC3=O)CS[C@H]2C)NC(=O)[C@H](CC(C)C)NC1=O [K2M],0.125 mg/mL,0.03099 mg/mL,0.03099 mg/mL,0.25 mg/mL,0.25 mg/mL,–,–,–,–,–,–,–,–,–
C=C1NC(=O)[C@H](Cc2c[nH]c3ccccc23)NC(=O)[C@H](NC(=O)[C@H](CCCCN)NC(=O)[C@@H](N)Cc2ccccc2)CSC[C@@H](C(=O)N[C@H]2C(=O)N3CCC[C@H]3C(=O)NCC(=O)N[C@H](C(=O)N[C@@H](C)C(=O)N[C@@H](CCCNC(=N)N)C(=O)N/C(=C\C)C(=O)NCC(=O)N[C@@H]3CSC[C@@H]4NC(=O)[C@H](Cc5ccc(O)cc5)NC(=O)[C@@H](CS/C=C\NC4=O)NC(=O)[C@H](CC(N)=O)NC(=O)[C@H](Cc4ccccc4)NC3=O)CS[C@H]2C)NC(=O)[C@H](C)NC1=O [L6A],8 mg/mL,0.06299 mg/mL,0.125 mg/mL,32 mg/mL,4 mg/mL,8 mg/mL,16 mg/mL,1 mg/mL,8 mg/mL,4 mg/mL,16 mg/mL,1 mg/mL,8 mg/mL,1 to 16 mg/mL
